Results of unrelated studies side by side (data: NIAID ChemDB).

Shared fields: growth or infection tests; agent: Mycobacterium tuberculosis

MIC bound comes from a single tested concentration. Two numbers with a dash give a range or band. A number after MIC or MFC names an inhibition level or a share of isolates. Inhibition is in % at the dose shown (toxicity tests: loss of growth or viability). Neighbouring rows are from separate reports. Blank or dashed fields: not listed here.

SMILES,conditions,changes,tested at,method,endpoint,strain or isolate,value
CC(O)C1C(=O)N2C(C(=O)O)C=C(SC3CN(C4=NCCC4)C3)C12,,,,,MIC,H37Rv,0.5–1 µg/mL
NNC(=O)c1ccncc1,,,,resazurin,MIC90,H37Rv,0.81 µM
[N-]=[N+]=NCCCCCCCCN1C(=O)C(=O)c2cc(Cl)ccc21,,,,,MIC99,MC2 6230,158 µM
Oc1ccc(Cl)cc1C(=S)Nc1ccc(F)cc1,,,,,MIC,My 331/88,2 µM
C=CCN(CC=C)C(=O)COc1cc2c(O)c3c(O)c(C)c4c(c13)C(=O)[C@@](C)(O/C=C/[C@H](OC)[C@@H](C)[C@@H](OC(C)=O)[C@H](C)[C@H](O)[C@H](C)[C@@H](O)[C@@H](C)/C=C/C=C(/C)C(=O)N2)O4,,,,,MIC,H37Rv,0.37 µg/mL
O=C(Cc1cccs1)N/N=C/c1ccccn1,,,,resazurin,MIC,H37Rv (ATCC 27294),409.8 µM
NNC(=O)c1ccncc1,,,,,MIC,H37Rv,0.05 µg/mL
O=C(Nc1sc(Cc2ccc(OCc3c(Cl)cccc3Cl)cc2)cc1C(=O)O)c1ccccn1,,,,resazurin,MIC90,H37Rv,24.7 µM
CCCN(C(=O)COc1cc2c(O)c3c(O)c(C)c4c(c13)C(=O)[C@@](C)(O/C=C/[C@H](OC)[C@@H](C)[C@@H](OC(C)=O)[C@H](C)[C@H](O)[C@H](C)[C@@H](O)[C@@H](C)/C=C/C=C(/C)C(=O)N2)O4)N1CCOCC1,,,,,MIC,H37Rv,0.37 µg/mL
O=C(c1ccncc1)N1C(c2ccccc2)=C(c2ccccc2)Sc2nnc(-c3ccc(Cl)cc3)n21,,,,,MIC,,10 µg/mL
Cc1ccc2oc(=O)n(-c3cccc(Cl)c3)c(=S)c2c1,14 d,,,,MIC,My 331/88,0.5 µM
C=C(C)C1CC=C(C)/C(=N/NC(=O)c2cccnc2)C1,,inhA 15C to T,,visual reading / absorbance,MIC,,25 µM
CCCCc1ccc(NC(=S)c2cc(Cl)ccc2O)cc1,,,,,MIC,My 331/88,8 µM
COc1ccc2nc(/N=C(\N)N=C(N)N)sc2c1,,,,resazurin,MIC bound,H37Rv,>6.25 µg/mL
[N-]=[N+]=NCCCCCCCCN1C(=O)C2(OCCO2)c2ccccc21,,,,,MIC99,MC2 6230,>303 µM
COc1ccc(COc2ccc(C(O)C3CC3)cc2)cc1,,,,,MIC,H37Ra,>25 µg/mL
COC1=C(Br)[C@@H](O)[C@]2(C=C1Br)CC(C(=O)NCCCCNC(=O)C1=NO[C@]3(C=C(Br)C(OC)=C(Br)[C@@H]3O)C1)=NO2,,,,,MIC,H37Rv (streptomycin-resistant),12.5 µg/mL
[N-]=[N+]=NCCCCCCN1C(=O)C(=O)c2cc(Cl)ccc21,,,,,MIC99,MC2 6230,163 µM
Cc1coc(NS(=O)(=O)c2ccc(N=Nc3c(N)[nH]c(=O)[nH]c3=O)cc2)c1C,,,12.5 µg/mL,BACTEC,inhibition,H37Rv,-21%
CCCCCCCCO[C@H]1O[C@H](CO[C@H]2O[C@H](CNC(=O)C(C)(C)C)[C@@H](O)[C@@H]2O)[C@@H](O)[C@@H]1O,,,,,MIC,H37Ra,>12.8 µg/mL
CSC(=S)N/N=C(/C)Cc1ccccn1,,,,,MIC,PAS-R,0.8 µg/mL
Oc1ccc(Cl)cc1C(=S)Nc1ccc(Cl)cc1,,,,,MIC,My 331/88,2 µM
COc1cc2oc3c(C)c(=O)cc4oc(-c5ccccc5)cc(c2c2c1CC[C@@H](c1ccccc1)O2)c43,,,,resazurin,MIC bound,H37Rv,<6.25 µg/mL
Cn1nc(-c2ccc(C(=O)Nc3ccc(Cl)cc3)s2)cc1C(F)(F)F,,,,low oxygen,MIC90,H37Rv,2.9 µM
CC1(C)S[C@@H]2[C@H](NC(=O)[C@H](N)c3ccc(O)cc3)C(=O)N2[C@H]1C(=O)O,,,,fluorescence,MIC,H37Rv,40 µg/mL
c1ccc2c(c1)OP1(=NP3(=NP4(=N1)Oc1ccccc1O4)Oc1ccccc1O3)O2,,,,BACTEC,MIC,H37Rv,≥128 µg/mL
O=C(c1ccncc1)N1C(c2ccccc2)=C(c2ccccc2)Sc2nnc(COc3ccccc3[N+](=O)[O-])n21,,,,,MIC,,100 µg/mL
Cc1cn(CC2C=CC(CS[As](C)C)O2)c(=O)[nH]c1=O,,,,BACTEC,MIC bound,H37Rv,>12.5 µg/mL
NNC(=O)c1ccncc1,,,,fluorescence,MIC,H37Rv,0.025 µg/mL
Cc1ccc2oc(=S)n(-c3cccc(F)c3)c(=S)c2c1,14 d,,,,MIC,My 331/88,4 µM
CO[C@H]1/C=C/O[C@@]2(C)Oc3c(C)c(O)c4c(O)c(c(/C=N/N5CCN(C)CC5)c(O)c4c3C2=O)NC(=O)/C(C)=C\C=C\[C@H](C)[C@H](O)[C@@H](C)[C@@H](O)[C@@H](C)[C@H](OC(C)=O)[C@@H]1C,,,,resazurin,MIC,H37Rv ATTC 27294,0.06 µg/mL
CCOCCN(CCOCC)c1ccc2nc3c(oc2c1)c1c(O)c2c(=O)c(C)c4c(c23)C(=O)[C@@](C)(O/C=C/[C@H](OC)[C@@H](C)[C@@H](OC(C)=O)[C@H](C)[C@H](O)[C@H](C)[C@@H](O)[C@@H](C)/C=C/C=C(/C)C(=O)N1)O4,,,,,MIC,H37Rv,0.15 µg/mL
Cc1cccnc1Nc1nc(-c2ccccn2)cs1,,,,low oxygen,MIC90,H37Rv,0.4 µM
CCCC(=O)Nc1sc(Cc2ccc(OCc3c(Cl)cccc3Cl)cc2)cc1C(=O)O,,,,resazurin,MIC90,H37Rv,61.1 µM
COc1ccc2c3c1OC1C(C)(O)C(O)CC4C(C2)N(C)CCC341,,,12.5 µg/mL,BACTEC,inhibition,H37Rv,-7%
O=C(Nc1sc(Cc2ccc(OCc3c(Cl)cccc3Cl)cc2)cc1C(=O)O)c1ccccc1,,,,resazurin,MIC90,H37Rv,15.7 µM
COc1cc2c(cc1OC)-c1cc3cc(OC)c(OC)cc3c(C)[n+]1CC2.O=C(O)CS(=O)(=O)[O-],,,12.5 µg/mL,BACTEC,inhibition,H37Rv,46%
COc1ccc(C(=O)Nc2sc(Cc3ccc(OCc4c(Cl)cccc4Cl)cc3)cc2C(=O)O)cc1,,,,resazurin,MIC90,H37Rv,>128 µM
CCCCCCCCCCOC(=O)c1cc[n+](C)cc1,,,,resazurin,MIC bound,H37Rv,>6.25 µg/mL
Cc1ccc2oc(=S)n(-c3ccc(Cl)c(Cl)c3)c(=S)c2c1,21 d,,,,MIC,My 331/88,0.5 µM
COc1ccc(C2C3C(=O)OCCOC(=O)C3C2c2ccc(OC)c(OC)c2)cc1OC,,,12.5 µg/mL,BACTEC,inhibition,H37Rv,4%
O=C(O)C1C(=CCO)OC2CC(=O)N21.[K+],,,,fluorescence,MIC,H37Rv,>5 µg/mL
CO[C@H]1/C=C/O[C@@]2(C)Oc3c(C)c(O)c4c(O)c(c(/C=N/N5CCN(C)CC5)c(O)c4c3C2=O)NC(=O)/C(C)=C\C=C\[C@H](C)[C@H](O)[C@@H](C)[C@@H](O)[C@@H](C)[C@H](OC(C)=O)[C@@H]1C,,,,resazurin,MIC90,H37Rv,0.08 µM
NNC(=O)c1ccncc1,,,,,MIC,H37Rv,0.031–0.063 µg/mL
COc1ccc2oc(=O)n(-c3ccc(Cl)cc3)c(=S)c2c1,14 d,,,,MIC,My 331/88,8 µM
[N-]=[N+]=NCCCCN1C(=O)C2(OCCO2)c2cc(Cl)ccc21,,,,,MIC99,MC2 6230,>311 µM
O=C1CSc2nnc(-c3ccc(Cl)cc3)n2N1C(=O)c1ccncc1,,,,,MIC,,10 µg/mL
COc1ccc2c(c1)c1c3n2CCNN=C3CCC1,,,,BACTEC,MIC bound,H37Rv,>12.5 µg/mL
CO[C@H]1/C=C/O[C@@]2(C)Oc3c(C)c(=O)c4c(O)c(c5oc6cc(N7CCCC7)ccc6nc5c4c3C2=O)NC(=O)/C(C)=C\C=C\[C@H](C)[C@H](O)[C@@H](C)[C@@H](O)[C@@H](C)[C@H](OC(C)=O)[C@@H]1C,,,,,MIC,H37Rv,0.035 µg/mL
CC(C)N1CCC2(CC1)NNc1ncccc1-n1cccc12.Cl.Cl,,,,BACTEC,MIC bound,H37Rv,>12.5 µg/mL
CCCCCCCCO[C@H]1O[C@H](CO[C@H]2O[C@H](CNS(=O)(=O)CC)[C@@H](O[Si](C)(C)C(C)(C)C)[C@@H]2O[Si](C)(C)C(C)(C)C)[C@@H](O[Si](C)(C)C(C)(C)C)[C@@H]1O[Si](C)(C)C(C)(C)C,,,,,MIC,H37Ra,>12.8 µg/mL
COc1ccc(CC(N=Cc2ccc(O)cc2)C(=O)N[C@H]2[C@@H](O)[C@H](n3cnc4c(N(C)C)ncnc43)O[C@@H]2CO)cc1,,,,resazurin,MIC,H37Rv,1.56 µg/mL
O=C(c1ccncc1)N1C(c2ccccc2)=C(c2ccccc2)Sc2nnc(COc3ccccc3)n21,,,,,MIC,,10 µg/mL
COC(=O)C1CC(=O)N(C)c2sc(C)c(C)c2C1=O,,,,BACTEC,MIC bound,H37Rv,>12.5 µg/mL
CC1(C)S[C@@H]2[C@H](NC(=O)[C@H](N)c3ccc(O)cc3)C(=O)N2[C@H]1C(=O)O,,,,,MIC,H37Rv,16–32 µg/mL
O=C(Cc1cccs1)N/N=C/c1ccccc1O,,,,resazurin,MIC,H37Rv (ATCC 27294),404.7 µM
O=C(N/N=C(\c1nc2ccc([N+](=O)[O-])cc2[nH]c1=O)C(O)c1ccc([N+](=O)[O-])cc1)c1ccncc1,,KatG S315R,,visual reading / absorbance,MIC,H37Rv,50 µM
C[C@@H]1CN(c2c(F)c(N)c3c(=O)c(C(=O)O)cn(C4CC4)c3c2F)C[C@H](C)N1,,,,,MIC90,25 strains,0.2 µg/mL
Nc1nc(OCc2ccccc2)ncc1C(=O)NCC(=O)O,,,12.5 µg/mL,BACTEC,inhibition,H37Rv,-8%
NNC(=O)c1ccncc1,,KatG *741R,,visual reading / absorbance,MIC,H37Rv,0.1 µM
COc1c(N2CC3CCCNC3C2)c(F)cc2c(=O)c(C(=O)O)cn(C3CC3)c12,,,,fluorescence,MIC,H37Rv,0.06 µg/mL
CCCCCCCCO[C@H]1O[C@H](CO[C@H]2O[C@H](CNC(=O)C(C)(C)C)[C@@H](O[Si](C)(C)C(C)(C)C)[C@@H]2O[Si](C)(C)C(C)(C)C)[C@@H](O[Si](C)(C)C(C)(C)C)[C@@H]1O[Si](C)(C)C(C)(C)C,,,,,MIC,H37Ra,>12.8 µg/mL
O=C(Cc1cccs1)N/N=C/c1cccs1,,,,resazurin,MIC,H37Rv (ATCC 27294),>100 µg/mL
[N-]=[N+]=NCCCCCN1C(=O)C2(OCCO2)c2cc(Cl)ccc21,,,,,MIC99,MC2 6230,>298 µM
O=c1oc2ccc(Br)cc2c(=S)n1-c1cccc(F)c1,14 d,,,,MIC,My 331/88,2 µM
COc1cc(C(=O)NC(=S)Nc2ccc(C)c(F)c2)cc(OC)c1OC,,,,BACTEC,MIC bound,H37Rv,>12.5 µg/mL
O=C(NN1C(=O)CS(=O)(=O)C1c1ccc(C(F)(F)F)cc1)c1ccncc1,,inhA 15C to T,,visual reading / absorbance,MIC,,12.5 µM
Oc1ccc(Cl)cc1C(=S)Nc1ccc(Cl)c(Cl)c1,,,,,MIC,My 331/88,1 µM
Fc1ccc(-n2c(=S)oc3ccc(F)cc3c2=S)cc1,14 d,,,,MIC,My 331/88,1 µM
CCOc1ccccc1NC(=O)C(=O)CC(=O)c1sc(Nc2nnc(-c3ccc(Cl)c(Cl)c3)o2)nc1C,,,,BACTEC,MIC bound,H37Rv,>12.5 µg/mL
Nc1ccc(-c2nnc3n2N(C(=O)c2ccncc2)C(=O)CS3)cc1,,,,,MIC,,100 µg/mL
CC1(C)OC(=O)C2C3C=CC(C2C(=O)O)C31,,,12.5 µg/mL,BACTEC,inhibition,H37Rv,-1%
CCCCCCCCO[C@H]1O[C@H](CO[C@H]2O[C@H](CN)[C@@H](O)[C@@H]2O)[C@@H](O)[C@@H]1O,,,,,MIC,H37Ra,>12.8 µg/mL
CCN(CC)C(=O)c1c(C(=O)OC)c(C)n(NC(=O)c2cccc(C)c2)c1C,,,,BACTEC,MIC bound,H37Rv,>12.5 µg/mL
O=C(c1ccncc1)N1C(c2ccccc2)=C(c2ccccc2)Sc2nnc(-c3ccccc3)n21,,,,,MIC,,10 µg/mL
CC(C)=CC(O)C/C(C)=C/CC/C(C)=C/CCC1(C)C(CCCO)/C(=C(\C)C=O)CCC1(C)O,,,,BACTEC,MIC,H37Rv,≥12.5 µg/mL
CCCCN(C(=O)COc1cc2c(O)c3c(O)c(C)c4c(c13)C(=O)[C@@](C)(O/C=C/[C@H](OC)[C@@H](C)[C@@H](OC(C)=O)[C@H](C)[C@H](O)[C@H](C)[C@@H](O)[C@@H](C)/C=C/C=C(/C)C(=O)N2)O4)N1CCOCC1,,,,,MIC,H37Rv,1.5 µg/mL